## Sequence variants of PSTVd loop 6 after infection

Values reported by Wu et al. 2024 (doi:10.1371/journal.ppat.1012142).

Region: loop 6 of PSTVd (intermediate strain), upper and lower strand joined, each 5' to 3', the first 5 letters being the upper strand, closing pairs included. Wild type: UGACCGCGAG. Varied positions (N): UNNNCGNNNG.

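Three N. benthamiana plants were inoculated with the whole mutant pool. Progeny were sequenced from the inoculated region (day 5), the margin of the inoculated leaf (day 10) and systemic leaves (day 12).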

Values are reads per thousand in the sample; higher means more abundant, 0 means not found.
Each site shows the three plants.
"Pool" is the share in the plasmid pool used as inoculum, on the same scale.
The inoculated region was read from the minus strand, the other sites from the plus strand.
IR is the inoculated region, LM the leaf margin, Sys the systemic leaves.
With 36,220-57,551 reads a sample, very low values are single reads.
For reference, wild type rose from 20.7 per thousand in the pool to 195, 198, 203 (inoculated region), 629, 591, 734 (leaf margin) and 942, 870, 868 (systemic leaves).
The authors trace changes outside the varied positions to PCR and sequencing errors or to mutation in the plant; presence does not show that a variant is infectious alone.

sequence	pool	IR	LM	Sys
UCUGCGCAUG	0.248	0.0695 0.144 0.0369	0 0 0	0 0 0.0205
UCCACGGUGG	0.288	0.104 0.126 0.111	0 0 0.0232	0 0 0
UCUCCGGAGG	0.118	0.139 0.108 0.0553	0 0 0.0464	0 0 0
UCUCCGUUCG	0.340	0.0869 0.126 0.0922	0.110 0 0	0 0 0
UCACCGCUGG	0.144	0.156 0.0359 0.111	0.0276 0 0.0232	0 0 0
UAGCCGCCCG	0.405	0.122 0.0898 0.0738	0.0552 0.0252 0	0 0.0202 0.0205
UAUGCGUGUG	0.157	0.0695 0.0539 0.0922	0 0 0.0232	0 0 0
UCUUCGCUAG	0.209	0.104 0.0719 0.0922	0 0.0252 0	0 0 0
UGGGCGCCAG	0.0784	0.0348 0.108 0.0922	0 0 0.0232	0 0 0
UUGCCGCCUG	0.248	0.191 0.108 0.0922	0 0 0	0 0 0
UAACCGAGGG	0.157	0.122 0.108 0.203	0 0 0	0 0 0
UUGUCGGAAG	0.209	0.156 0.126 0.0922	0 0 0	0 0 0
UGACCUGUUG	0.0131	0 0 0	0 0 0	0 0 0
UAACCGAAGG	0.0654	0.0695 0.0180 0.166	0 0 0	0 0 0
UCAACGGCUG	0.248	0.243 0.0539 0.0738	0 0 0.0232	0 0 0
UGUGCGAUUG	0.431	0.0348 0.162 0.0553	0 0 0	0 0 0
UCAACGUGCG	0.248	0.730 0.736 0.553	0.138 0.0757 0.0232	0 0 0
UAUUCGCUAG	0.183	0.191 0.0539 0.0738	0 0 0.0232	0 0 0
UUACCGCACG	0.183	0.730 0.916 0.590	0.193 0.126 0.116	0 0 0
UAUCCGCGAG	0.144	0.191 0.287 0.314	0.138 0.126 0.0232	0.0359 0.0202 0.0820
UGUCCGUUAG	0.366	0.0695 0.0898 0.148	0 0 0	0 0 0
GGACCGAACG	0.0131	0 0.0359 0.0369	0 0 0	0 0 0
UCUACGAGCG	0.209	0.122 0.0180 0.0738	0.0828 0 0.0232	0 0 0
UCAUCGACAG	0.118	0.0348 0.144 0.148	0 0 0	0 0 0
UGUGCGGCGG	0.275	0.139 0.108 0.0738	0 0 0	0 0 0
UUGGCGCAAG	0.209	0.0695 0.126 0.129	0 0 0	0 0 0
UCAGCGCGUG	0.183	0.0869 0.0180 0.0369	0 0 0	0 0 0.0205
UGCUCGGGCG	0.209	0.0869 0.0898 0.0369	0 0 0	0 0 0
UCUUCGACCG	0.196	0.174 0.0180 0.0184	0.0276 0 0	0 0 0
UCGUCGUAAG	0.105	0.0869 0.0719 0.0738	0.0276 0 0.0232	0 0 0
UCCCCGUUGG	0.340	0.0869 0.0898 0.0738	0 0.202 0.0232	0 0 0
UAUUCGAAGG	0.157	0.0348 0.0180 0.111	0 0 0.0232	0 0 0
UUGACGUAAG	0.157	0.139 0.0539 0.0922	0 0 0.0232	0 0 0
UUGCCGAAAG	0.209	0.139 0.108 0.111	0.0276 0 0.0464	0 0 0
UACGCGGGCG	0.157	0.122 0.0898 0.0738	0 0 0	0 0 0
UCGGCGAACG	0.222	0.0869 0.0719 0.0369	0 0 0	0 0 0

2 of these entries, quoted again:

sequence	pool	IR	LM	Sys
GGACCGAACG	0.0131	0 0.0359 0.0369	0 0 0	0 0 0
UCGGCGAACG	0.222	0.0869 0.0719 0.0369	0 0 0	0 0 0